PubChem BioAssay AID504720 (Sanford-Burnham Center for Chemical Genomics, 2011)
The entries are a selection whose mix differs from that of the whole data set. The source made the active and inactive calls. Cut-off read from the data, not from the text of the source: active = activation above about 50%; inactive = the rest.

The chains behind the UniProt entries cited, without tags or fusion partners. Where a name states a change or a piece, a line headed by the entry shows the natural chain unless it says otherwise.
UniProt P0AE70: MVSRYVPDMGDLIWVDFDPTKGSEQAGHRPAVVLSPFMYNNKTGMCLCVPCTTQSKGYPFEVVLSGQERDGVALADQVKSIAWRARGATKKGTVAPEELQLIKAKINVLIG

molecular target: Endoribonuclease toxin MazF (Escherichia coli (strain K12)) (UniProt P0AE70); assay: activators of E. coli MazEF toxin-antitoxin RNase, primary screen, biochemical, fluorescence, uHTS (AID 504720); conditions: FAM/BHQ RNA-DNA oligo cleavage fluorescence, 5 h, at 20 µM, active compounds read high

SMILES	activation
CCN(/C(=N/P(=O)(N1CCOCC1)N1CCOCC1)N1CCOCC1)c1ccc(OC)cc1	inactive: 6.07%
C[N+]1=C2C=CC=CC=C2SC12C([N+](=O)[O-])=CC([N+](=O)[O-])=C[C-]2[N+](=O)[O-] (stereo not drawn)	inactive: 5.92%
Nc1ccc([As](=O)(O)c2ccc(N)cc2)cc1	inactive: -0.374%
c1cc(-c2nn[nH]n2)ccc1-c1nn[nH]n1	inactive: 1.05%
CC1CCN(C(=O)Oc2c(Cl)cc(Cl)c3cccnc23)CC1	inactive: -1.75%
CN(C)C(=O)OCCc1n(C)cc[n+]1C	inactive: 4.8%
CC(C)=N/N=C(\N)N[N+](=O)[O-]	inactive: 2.48%
CC(C)c1nc(Nc2ccccc2)n(P(=O)(N(C)C)N(C)C)n1	inactive: -0.14%
COc1ccc(C2=NCC(CBr)S2)cc1 (stereo not drawn)	inactive: 17.4%
CCc1nc2c(n1)c1c(non1O)c1c2no[n+]1[O-]	inactive: 5.78%
O=[N+]([O-])c1cc([N+](=O)[O-])c(CCNc2ccccc2)c([N+](=O)[O-])c1	inactive: 2.13%
Cc1ccc(NP(=O)(Oc2ccccc2)Oc2ccccc2)nc1	inactive: 14.3%
O=[N+]([O-])c1cccc2n[nH]nc12	inactive: -3.38%
CC(=O)N1C2C3N(C(C)=O)C1C1N(C(C)=O)C(C(N1C(C)=O)N3C(C)=O)N2C(C)=O	inactive: 4%
O=[N+]([O-])c1ncn(CCn2ncnc2[N+](=O)[O-])n1	inactive: 8.29%
CC(C)(C)C(=O)NC(Sc1ccncn1)C(Cl)(Cl)Cl (stereo not drawn)	inactive: -18.8%
O=C(O)CNc1ccc([As](=O)(O)O)cc1	inactive: 7.28%
O=[N+]([O-])c1cccc(NC2=NCC(CBr)S2)c1 (stereo not drawn)	inactive: 7.87%
COC(=O)C1(C)COP(=O)(Nc2ccccc2)OC1 (stereo not drawn)	inactive: 8.15%
O=P1(N(CCCl)CCCl)OCCCS1 (stereo not drawn)	inactive: 3.8%
O=C(Nc1cc([As](=O)(O)O)ccc1O)c1ccccc1	inactive: 4.52%
Nc1cccc2ccc([As](=O)(O)O)cc12	inactive: -1.1%
CCN(N=Nc1nonc1N)c1nonc1N	inactive: 6.23%
CN(C)P(=O)(N(C)C)n1c(Nc2ccccc2)nnc1-c1ccccc1	inactive: -0.202%
O=P(Nc1nc2ccc(Cl)cc2s1)(c1ccccc1)c1ccccc1	inactive: 1.97%
CCCC1OP(N)(=O)OCC1CC (stereo not drawn)	inactive: 3.38%

SMILES	activation
O=C(O)c1ccccc1[As](=O)(O)O	inactive: 8.09%
CC(=O)Nc1ccc([As](=O)(O)O)cc1	inactive: 6.84%
Cc1ccc(NP(=O)(Oc2ccccc2F)Oc2ccccc2F)nc1	inactive: 10.3%
CN(C(=O)Cc1ccc(Cl)c(Cl)c1)[C@H]1CCCC[C@@H]1N1CCCC1	inactive: 8.78%
CCOP(=O)(Nc1ccccc1)OCC	inactive: 2.85%
Cc1cc(SC(NC(=O)c2ccc(F)cc2)C(Cl)(Cl)Cl)ncn1 (stereo not drawn)	inactive: 5.53%
O=C(NC(Sc1ccncn1)C(Cl)(Cl)Cl)c1ccccc1 (stereo not drawn)	inactive: -0.758%
Oc1ccccc1CNc1ccccn1	inactive: 2.89%
CC(C)CC(=O)NC(Sc1ccc(Cl)cc1)C(Cl)(Cl)Cl (stereo not drawn)	inactive: -1.73%
Nc1cc(N)c2nonc2c1[N+](=O)[O-]	inactive: -11.7%
Cc1ccc(N/C(=N/P(=O)(N2CCOCC2)N2CCOCC2)N2CCOCC2)cc1	inactive: -0.993%
CN(C(=O)Cc1ccc(Cl)c(Cl)c1)[C@H]1CCCC[C@H]1N1CCCC1	inactive: 0.681%
NC(=O)c1cc([N+](=O)[O-])cc([N+](=O)[O-])c1N	inactive: 9.13%
Clc1ccc(Cl)c(NC2=NCC(CBr)S2)c1 (stereo not drawn)	inactive: 5.36%
CN1CCCC(OC(=O)C(c2ccccc2)c2ccccc2)C1 (stereo not drawn)	inactive: -19.7%
Cc1ccc(OP(=O)(Nc2nccs2)Oc2ccc(C)cc2)cc1	inactive: -7.69%
COc1ccccc1OP(=O)(Nc1ccc(C)cn1)Oc1ccccc1OC	inactive: -3.43%
C[C@@H]1C=CCP(=O)(Oc2ccccc2)O1 (stereo partly drawn)	inactive: 4.72%
C[C@H]1OP(=O)(Oc2ccccc2)C[C@@H]2O[C@@H]21 (stereo partly drawn)	inactive: 5%
Cc1ccccc1CN(C)C(=O)COC(=O)C(O)(c1ccccc1)c1ccccc1	inactive: 3.77%
COC(=O)C1(C)COP(=O)(NCc2ccccc2)OC1 (stereo not drawn)	inactive: 11.1%
N#C/C(=C\c1ccc(N(CCBr)CCBr)cc1)C(N)=O	inactive: 11.9%
CC(=O)c1ccc(N2CC2c2ccncc2)cc1 (stereo not drawn)	inactive: -0.94%
CC(=O)Nc1ccc(Oc2c([N+](=O)[O-])cc([N+](=O)[O-])cc2[N+](=O)[O-])cc1	inactive: 7.28%
CC(=O)Nc1ccc([As](=O)(O)O)c(O)c1	inactive: -2.73%
CCOc1ccc(C2=NCC(CBr)S2)cc1 (stereo not drawn)	inactive: 1.02%

SMILES	activation
O=P1(Nc2nc3ccc(Cl)cc3s2)COc2ccccc2O1 (stereo not drawn)	inactive: 3.3%
CC(C)(C)C(=O)NC(Sc1ccccc1)C(Cl)(Cl)Cl (stereo not drawn)	inactive: -3.56%
CCc1cc(O)c([N+](=O)[O-])c(C)c1[N+](=O)[O-]	inactive: 8.28%
CCC(=O)N1C2C3N(C(=O)CC)C1C1N(C(=O)CC)C(C(N1C(=O)CC)N3C(=O)CC)N2C(=O)CC	inactive: 4.72%
O=C(OC1CN2CCC1CC2)c1ccccc1 (stereo not drawn)	inactive: 0.38%
Cc1ccc(OP(=O)(Nc2ccccn2)Oc2ccc(C)cc2)cc1	inactive: 1.44%
CC(=O)NC(SC(=S)N(CC(C)C)CC(C)C)C(Cl)(Cl)Cl (stereo not drawn)	inactive: 0.68%
COC(=O)c1cc2c(s1)N=C(c1ccccc1)N(C)P2(=O)N1CCOCC1 (stereo not drawn)	inactive: -4.1%
CN(C)C(=O)Oc1noc2ccccc12	inactive: 2.78%
O=c1c2cc([N+](=O)[O-])ccc2[nH]c2c([N+](=O)[O-])cc([N+](=O)[O-])cc12	inactive: 0.83%
Cc1ccccc1OP(=O)(Nc1ccccn1)Oc1ccccc1C	inactive: 2.03%
CC(NC(=O)COC(=O)C(O)(c1ccccc1)c1ccccc1)c1ccccc1 (stereo not drawn)	inactive: 2.18%
Cc1ccc(NP(=O)(Oc2cccc(C)c2)Oc2cccc(C)c2)nc1	inactive: 4.26%
c1ccc(-c2nn[nH]n2)c(-c2nn[nH]n2)c1	inactive: 10.4%
CCNC(=S)/N=C(\N)N[N+](=O)[O-]	inactive: 3.13%
O=C(NC1CCS(=O)(=O)C1)NP(=S)(Oc1ccccc1)Oc1ccccc1 (stereo not drawn)	inactive: 1.51%
O=P1(N(CCCl)CCCl)OCCC2CCCCN21 (stereo not drawn)	inactive: -7.54%
O=[As](O)(c1ccccc1)c1ccc(O)cc1	inactive: 3.78%
O=[N+]([O-])c1ccc(O)c(/C=N/Nc2ccc([N+](=O)[O-])cc2[N+](=O)[O-])c1	inactive: 17.7%
O=[N+]([O-])c1ncn(CCn2cnc([N+](=O)[O-])n2)n1	inactive: 7.01%
CC(=O)NC(SC(=S)N(C)C)C(Cl)(Cl)Cl (stereo not drawn)	inactive: 4.11%
O=C(OC1CN2CCC1CC2)c1cccc(Cl)c1 (stereo not drawn)	inactive: 4.48%
Nc1ccc([As](=O)(O)c2ccc([N+](=O)[O-])cc2)cc1	inactive: 5.39%
C(Cc1nn[nH]n1)Cc1nn[nH]n1	inactive: 1.23%
O=P(Nc1ccccn1)(c1ccc(Br)cc1)c1ccc(Br)cc1	inactive: -0.906%
CN(C)C1(CNC(=O)c2ccc(Cl)c(S(N)(=O)=O)c2)CCCCC1	inactive: 1.5%

SMILES	activation
COc1ccc(N)c([N+](=O)[O-])c1[N+](=O)[O-]	inactive: 14.4%
C[C@H]1OP(=O)(Oc2ccccc2)[C@H](O)[C@H](O)[C@H]1N=[N+]=[N-] (stereo partly drawn)	inactive: 5.81%
O=P(Nc1nc2ccccc2s1)(c1ccccc1)c1ccccc1	inactive: 1.66%
CC(C)C(=O)NC(Sc1ccccc1)C(Cl)(Cl)Cl (stereo not drawn)	inactive: 3.78%
O=P(Nc1nccs1)(c1ccccc1)c1ccccc1	inactive: -0.421%
c1nnnn1CCn1cnnn1	inactive: 0.353%
COc1ccccc1CNC(=O)COC(=O)C(O)(c1ccccc1)c1ccccc1	inactive: 4.03%
CC(C)/C=N\N=C(\N)N[N+](=O)[O-]	inactive: -2.64%
CN(C(=O)Cc1ccc(Cl)c(Cl)c1)[C@@H]1CCCC[C@H]1N1CCCC1	inactive: -4.86%
CC1(CBr)Cn2c(nc3ccccc3c2=O)S1 (stereo not drawn)	inactive: 6.21%
CCOP(=O)(NC(=NC(C)c1ccccc1)NC(C)c1ccccc1)OCC (stereo not drawn)	inactive: 6.39%
O=P1(Nc2ccccn2)COc2ccccc2OC1	inactive: 6.59%
CCC1=CC2Cc3nc4ccc(Cl)cc4c(N)c3C(C1)C2 (stereo not drawn)	inactive: 19.5%
CN(CCCl)Cc1cc(Cl)c(NC2=NCCN2)c(Cl)c1	inactive: 0.818%
CCOP(=O)(Nc1ccc(C)cn1)OCC	inactive: -2.27%
CC(C)(C)C(=O)NC(Sc1ncccn1)C(Cl)(Cl)Cl (stereo not drawn)	inactive: -7.45%
O=P1(N(CCCl)CCCl)NCCC(C(F)(F)F)O1 (stereo not drawn)	inactive: 4.3%
Clc1n[nH]nc1-c1nn[nH][15n]1	inactive: -17.5%
O=P1(Nc2ncccn2)COc2ccccc2OC1	inactive: 9.6%
Nc1cccc([As](=O)(O)c2ccccc2)c1	inactive: 10.9%
O=P1(Nc2ccc(Br)cn2)COc2ccccc2OC1	inactive: -4.83%
NS(=O)(=O)c1cccc(NC(=O)COC(=O)C(O)(c2ccccc2)c2ccccc2)c1	inactive: 6.27%
O=[As](O)(c1cccs1)c1cccs1	inactive: 5.03%
Cc1ccc(OCC(=O)OC2CN3CCC2CC3)cc1 (stereo not drawn)	inactive: 2.08%
CC1CCC(C(C)C)C(OP(=O)(Nc2ccccn2)c2ccccc2)C1 (stereo not drawn)	inactive: -29.8%
